Here are results for one sequence from article PMC4509764.

The exact form of at least one protein or probe is not confirmed. Tags and fusion partners may be left off the protein sequences shown.

For data set [1], the target named is T1, NanR (Clostridium perfringens strain 13) (UniProt P26833).
T1 sequence (looked up, limits assumed): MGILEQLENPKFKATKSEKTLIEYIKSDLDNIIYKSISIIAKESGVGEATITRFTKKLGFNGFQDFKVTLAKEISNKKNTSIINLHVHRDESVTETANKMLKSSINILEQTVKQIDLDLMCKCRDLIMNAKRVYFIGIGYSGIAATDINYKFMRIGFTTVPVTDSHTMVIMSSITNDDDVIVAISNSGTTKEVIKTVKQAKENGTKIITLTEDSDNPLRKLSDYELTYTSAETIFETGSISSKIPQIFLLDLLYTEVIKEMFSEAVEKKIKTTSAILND
The data set can be described thus: competition with a labelled probe. To be noted: 20 mM HEPES pH 7.6, 1 mM EDTA, 10 mM ([…], room temperature 20 min, recombinant protein, protein details: C-terminal His6 (pET24a), label: digoxigenin-11-ddUTP end label, probe letters rebuilt from the primers and the genome.

In data set [2] the target is T1, NanR (Clostridium perfringens strain 13). The data set can be described thus: EMSA. The note with it: 20 mM HEPES pH 7.6, 1 mM EDTA, 10 mM ([…], room temperature 20 min, recombinant protein, protein details: C-terminal His6 (pET24a), label: digoxigenin-11-ddUTP end label, probe letters rebuilt from the primers and the genome.

With “AGTTAAAAGCAATTAAAAAAACATCTTGAAGTTTTAAGAAAATTATTTTCAATAAATTTTATTTGCGAAAATAATTTTCTTTTTATTTAGAGTTAAGAATTATTTTATTGGTTTAACTACAAGAATACTTGTTTGAATAGGAGGAAAGTCAGATAACAAGTATTTTGAAATAAAATTTAGATATAAATAATTAAAGAGTAGTAAGAAAGAATAAGAAAACTTTATAGAAAAACTTACCATAAAAATATCTTTATTGTATTGAAATTTCTTTAGAAAAGGATTACAATGTTAAATATAAGAAAAATATTTTCAAATTATTCTTATTTTGAAAATACTTTTCATAAAAATGAAATATTTTAGTATTCAAATTTTAATCGTTGCATTTCAAGAAGTATATTCAT (double strand) [nanI promoter probe]”, the binding result in data set [1] and in data set [2] was “binds” throughout.
